# Laboratory results reported in publication PMC7057333 (ACS Omega, 2020).
# Target: T1, LSD1 (Homo sapiens, UniProt O60341)
# T1 construct: made in house; host or cells: Escherichia coli Rosetta 2 (pET15b)
# Test: HRP-coupled fluorescence LSD1 demethylation activity and inhibition assay, substrate H3_1-21 K4(Me)
# Assay type: biochemical
# Conditions: relative to H3_1-11 K4M (4)
compound,measurement,value
CSCC[C@@H]1NC(=O)[C@H](NC(=O)[C@H](CCCNC(=N)N)NC(=O)[C@H](C)N)CCCCNC(=O)CC[C@@H](C(=O)N[C@@H](C)C(=O)N[C@@H](CCCNC(=N)N)C(=O)N[C@@H](CCCCN)C(=O)N[C@@H](CO)C(=O)N[C@H](C(N)=O)[C@@H](C)O)NC(=O)[C@H](CCC(N)=O)NC1=O (relative stereo) [Peptide 31],fold higher inhibition of LSD1 enzymatic activity than linear parent 4,> 40 fold
